Results as given in PubChem BioAssay AID651958 (The Scripps Research Institute Molecular Screening Center, 2012).
Only a part is listed here, and it is no random draw. Calls of active or inactive are those of the source. Rule as the data show it: active = inhibition above about 30%; inactive = the rest.

Test system: Crimean-Congo hemorrhagic fever virus L polyprotein viral ovarian tumor (vOTU) protease domain
Test: CCHFV vOTU protease inhibitors, primary screen, biochemical, Pep-AMC substrate, fluorescence (AID 651958); also: 0% = vehicle wells with enzyme and 100% = no enzyme wells
Settings: at 11.5 µM, stronger effect = higher value

| Compound | inhibition |
| --- | --- |
| O=P(Nc1nc2ccccc2s1)(c1ccccc1)c1ccccc1 | inactive: 0.55% |
| C[C@H]1OP(=O)(Oc2ccccc2)[C@H](O)[C@H](O)[C@H]1N=[N+]=[N-] (stereo partly specified) | inactive: -4% |
| Nc1ccc(CCCCOc2ccccc2)cc1 | inactive: 12.3% |
| COc1ccc(N)c([N+](=O)[O-])c1[N+](=O)[O-] | inactive: -2.32% |
| CN(C)C1(CNC(=O)c2ccc(Cl)c(S(N)(=O)=O)c2)CCCCC1 | inactive: -11.3% |
| O=P(Nc1ccccn1)(c1ccc(Br)cc1)c1ccc(Br)cc1 | inactive: -1.67% |
| C/C(N)=N\P(=O)(OCc1ccccc1)OCc1ccccc1 | inactive: 2.06% |
| Nc1ccc([As](=O)(O)c2ccc([N+](=O)[O-])cc2)cc1 | inactive: -13.6% |
| C(Cc1nn[nH]n1)Cc1nn[nH]n1 | inactive: -14.3% |
| O=C(OC1CN2CCC1CC2)c1cccc(Cl)c1 (stereo unspecified) | inactive: -5.35% |
| CC(=O)NC(SC(=S)N(C)C)C(Cl)(Cl)Cl (stereo unspecified) | inactive: -5.35% |
| O=[N+]([O-])c1ncn(CCn2cnc([N+](=O)[O-])n2)n1 | inactive: -6.46% |
| O=[As](O)(c1ccccc1)c1ccc(O)cc1 | inactive: 7.2% |
| c1nnnn1CCn1cnnn1 | inactive: -1.28% |
| O=P(Nc1nccs1)(c1ccccc1)c1ccccc1 | inactive: 0.8% |
| CC(C)C(=O)NC(Sc1ccccc1)C(Cl)(Cl)Cl (stereo unspecified) | inactive: 1.36% |
| CCc1cc(O)c([N+](=O)[O-])c(C)c1[N+](=O)[O-] | inactive: 11.1% |
| CC(C)(C)C(=O)NC(Sc1ccccc1)C(Cl)(Cl)Cl (stereo unspecified) | inactive: 0.23% |
| O=P1(Nc2nc3ccc(Cl)cc3s2)COc2ccccc2O1 (stereo unspecified) | inactive: -2.17% |
| CCOc1ccc(C2=NCC(CBr)S2)cc1 (stereo unspecified) | inactive: -8.2% |
| CC(=O)Nc1ccc([As](=O)(O)O)c(O)c1 | inactive: 0.66% |
| CC(=O)Nc1ccc(Oc2c([N+](=O)[O-])cc([N+](=O)[O-])cc2[N+](=O)[O-])cc1 | inactive: 12.2% |
| N#C/C(=C\c1ccc(N(CCBr)CCBr)cc1)C(N)=O | inactive: 3.48% |
| CC(=O)c1ccc(N2CC2c2ccncc2)cc1 (stereo unspecified) | inactive: -0.64% |
| COC(=O)C1(C)COP(=O)(NCc2ccccc2)OC1 (stereo unspecified) | inactive: 17.6% |
| Cc1ccccc1CN(C)C(=O)COC(=O)C(O)(c1ccccc1)c1ccccc1 | inactive: 9.09% |

| Compound | inhibition |
| --- | --- |
| C[C@@H]1C=CCP(=O)(Oc2ccccc2)O1 (stereo partly specified) | inactive: 1.49% |
| C[C@H]1OP(=O)(Oc2ccccc2)C[C@@H]2O[C@@H]21 (stereo partly specified) | inactive: -6.58% |
| O=P1(N(CCCl)CCCl)OCCC2CCCCN21 (stereo unspecified) | inactive: 7.03% |
| O=C(NC1CCS(=O)(=O)C1)NP(=S)(Oc1ccccc1)Oc1ccccc1 (stereo unspecified) | inactive: -11.9% |
| CCNC(=S)/N=C(\N)N[N+](=O)[O-] | inactive: -7.88% |
| c1ccc(-c2nn[nH]n2)c(-c2nn[nH]n2)c1 | inactive: 1.64% |
| Cc1ccc(NP(=O)(Oc2cccc(C)c2)Oc2cccc(C)c2)nc1 | inactive: 4.36% |
| Cc1ccccc1OP(=O)(Nc1ccccn1)Oc1ccccc1C | inactive: 4.9% |
| CC(NC(=O)COC(=O)C(O)(c1ccccc1)c1ccccc1)c1ccccc1 (stereo unspecified) | inactive: -4.88% |
| CN(C)C(=O)Oc1noc2ccccc12 | inactive: -1.59% |
| O=c1c2cc([N+](=O)[O-])ccc2[nH]c2c([N+](=O)[O-])cc([N+](=O)[O-])cc12 | inactive: 11.2% |
| COC(=O)c1cc2c(s1)N=C(c1ccccc1)N(C)P2(=O)N1CCOCC1 (stereo unspecified) | inactive: 2.18% |
| CC(=O)NC(SC(=S)N(CC(C)C)CC(C)C)C(Cl)(Cl)Cl (stereo unspecified) | inactive: -4.12% |
| Cc1ccc(OP(=O)(Nc2ccccn2)Oc2ccc(C)cc2)cc1 | inactive: -1.43% |
| O=C(OC1CN2CCC1CC2)c1ccccc1 (stereo unspecified) | inactive: -0.02% |
| CCC(=O)N1C2C3N(C(=O)CC)C1C1N(C(=O)CC)C(C(N1C(=O)CC)N3C(=O)CC)N2C(=O)CC | inactive: -4.36% |
| CCOP(=O)(Nc1ccccc1)OCC | inactive: 4.67% |
| Cc1cc(SC(NC(=O)c2ccc(F)cc2)C(Cl)(Cl)Cl)ncn1 (stereo unspecified) | inactive: 2.84% |
| CN(C(=O)Cc1ccc(Cl)c(Cl)c1)[C@H]1CCCC[C@@H]1N1CCCC1 | inactive: 6.23% |
| Cc1ccc(NP(=O)(Oc2ccccc2F)Oc2ccccc2F)nc1 | inactive: -6.78% |
| CCn1c(=O)n(C2CCN(CC3CCCCCCC3)C[C@H]2CO)c2ccccc21 (stereo partly specified) | inactive: 1.19% |
| O=C(O)c1ccccc1[As](=O)(O)O | inactive: -14.4% |
| CC(=O)Nc1ccc([As](=O)(O)O)cc1 | inactive: -1.75% |
| CCCC1OP(N)(=O)OCC1CC (stereo unspecified) | inactive: 9.62% |
| CN(C)P(=O)(N(C)C)n1c(Nc2ccccc2)nnc1-c1ccccc1 | inactive: 2.57% |
| O=P(Nc1nc2ccc(Cl)cc2s1)(c1ccccc1)c1ccccc1 | inactive: -5.58% |

| Compound | inhibition |
| --- | --- |
| CN(C(=O)Cc1ccccc1)C1CC[C@@]2(CCCO2)C[C@@H]1N1CCCC1 (stereo partly specified) | inactive: -6.26% |
| CCN(N=Nc1nonc1N)c1nonc1N | inactive: 22.4% |
| Nc1cccc2ccc([As](=O)(O)O)cc12 | active: 32.5% |
| COc1ccccc1OP(=O)(Nc1ccc(C)cn1)Oc1ccccc1OC | inactive: 8.12% |
| Cc1ccc(OP(=O)(Nc2nccs2)Oc2ccc(C)cc2)cc1 | inactive: 6.06% |
| Clc1ccc(Cl)c(NC2=NCC(CBr)S2)c1 (stereo unspecified) | inactive: 4.62% |
| CN1CCCC(OC(=O)C(c2ccccc2)c2ccccc2)C1 (stereo unspecified) | inactive: 2.34% |
| NC(=O)c1cc([N+](=O)[O-])cc([N+](=O)[O-])c1N | inactive: 7.34% |
| CN(C(=O)Cc1ccc(Cl)c(Cl)c1)[C@H]1CCCC[C@H]1N1CCCC1 | inactive: 2.75% |
| Cc1ccc(N/C(=N/P(=O)(N2CCOCC2)N2CCOCC2)N2CCOCC2)cc1 | inactive: 5.09% |
| CC(C)CC(=O)NC(Sc1ccc(Cl)cc1)C(Cl)(Cl)Cl (stereo unspecified) | inactive: 9.41% |
| Nc1cc(N)c2nonc2c1[N+](=O)[O-] | inactive: -10.1% |
| Oc1ccccc1CNc1ccccn1 | inactive: -6.67% |
| O=C(NC(Sc1ccncn1)C(Cl)(Cl)Cl)c1ccccc1 (stereo unspecified) | inactive: 0.03% |
| CC(=O)N1C2C3N(C(C)=O)C1C1N(C(C)=O)C(C(N1C(C)=O)N3C(C)=O)N2C(C)=O | inactive: 6.6% |
| O=[N+]([O-])c1cccc2n[nH]nc12 | inactive: 14.2% |
| Cc1ccc(NP(=O)(Oc2ccccc2)Oc2ccccc2)nc1 | inactive: 3.41% |
| O=[N+]([O-])c1cc([N+](=O)[O-])c(CCNc2ccccc2)c([N+](=O)[O-])c1 | inactive: 22.1% |
| CCc1nc2c(n1)c1c(non1O)c1c2no[n+]1[O-] | inactive: 6.31% |
| COc1ccc(C2=NCC(CBr)S2)cc1 (stereo unspecified) | inactive: -17.6% |
| CC(C)=N/N=C(\N)N[N+](=O)[O-] | inactive: -14.5% |
| CC(C)c1nc(Nc2ccccc2)n(P(=O)(N(C)C)N(C)C)n1 | inactive: -4.69% |
| CN(C)C(=O)OCCc1n(C)cc[n+]1C | inactive: -0.56% |
| c1cc(-c2nn[nH]n2)ccc1-c1nn[nH]n1 | inactive: -7.78% |
| CC1CCN(C(=O)Oc2c(Cl)cc(Cl)c3cccnc23)CC1 | inactive: -0.8% |
| Nc1ccc([As](=O)(O)c2ccc(N)cc2)cc1 | inactive: 4.73% |

| Compound | inhibition |
| --- | --- |
| C[N+]1=C2C=CC=CC=C2SC12C([N+](=O)[O-])=CC([N+](=O)[O-])=C[C-]2[N+](=O)[O-] (stereo unspecified) | inactive: 15.8% |
| CCN(/C(=N/P(=O)(N1CCOCC1)N1CCOCC1)N1CCOCC1)c1ccc(OC)cc1 | inactive: 2.13% |
| O=C(Nc1cc([As](=O)(O)O)ccc1O)c1ccccc1 | inactive: 12% |
| O=P1(N(CCCl)CCCl)OCCCS1 (stereo unspecified) | inactive: -3.47% |
| O=[N+]([O-])c1cccc(NC2=NCC(CBr)S2)c1 (stereo unspecified) | inactive: -1.6% |
| COC(=O)C1(C)COP(=O)(Nc2ccccc2)OC1 (stereo unspecified) | inactive: 13.4% |
| O=C(O)CNc1ccc([As](=O)(O)O)cc1 | inactive: -6.27% |
| CC(C)(C)C(=O)NC(Sc1ccncn1)C(Cl)(Cl)Cl (stereo unspecified) | inactive: 13.4% |
| O=[N+]([O-])c1ncn(CCn2ncnc2[N+](=O)[O-])n1 | inactive: 4.23% |
| CCCCOc1ccc(C(=O)NCC2(N3CCCCC3)CCCCC2)cc1OC | inactive: -15.3% |
| Cc1cc(SC(NC(=O)c2ccccc2)C(Cl)(Cl)Cl)nc(C(C)C)n1 (stereo unspecified) | inactive: -5.43% |
| COP(=O)(OC)N1CC1c1ccccc1 (stereo unspecified) | inactive: -10.4% |
| CC1CCNP(=O)(N(CCCl)CCCl)O1 (stereo unspecified) | inactive: 8.31% |
| O=C(O)C(O)c1ccc(N(CCCl)CCCl)cc1 (stereo unspecified) | inactive: -11.8% |
| CCOC(=O)Nc1ccc([As](=O)(O)O)c(O)c1 | inactive: 12.7% |
| O=[N+]([O-])c1ccc(Nc2ccc(Oc3ccc([N+](=O)[O-])cc3[N+](=O)[O-])cc2)c([N+](=O)[O-])c1 | inactive: 3.5% |
| Cc1cc(SC(NC=O)C(Cl)(Cl)Cl)ncn1 (stereo unspecified) | inactive: -8.85% |
| O=P(Nc1ccccn1)(c1cccc2ccccc12)c1cccc2ccccc12 | inactive: -4.54% |
| CCOC(=O)Nc1cccc([As](=O)(O)O)c1 | inactive: -0.56% |
| O=C(COc1ccccc1)OC1CN2CCC1CC2 (stereo unspecified) | inactive: 1.09% |
| O=C(Nc1ccncc1[N+](=O)[O-])c1ccc([N+](=O)[O-])cc1[N+](=O)[O-] | inactive: -7.88% |
| O=C(O)C(=O)c1ccc(N(CCCl)CCCl)cc1 | inactive: 9.59% |
| COP1(=S)c2c(C)nn(CCC#N)c2N=C(c2ccc(F)cc2)N1C (stereo unspecified) | inactive: -10.2% |
